Results reported in ChEMBL document CHEMBL5113391, “Halogen substituents enhance oxime nucleophilicity for reactivation of cholinesterases inhibited by nerve agents” (2022).

Legend:
[1] = test system: Mus musculus; test: Neuroprotective activity against cyclosarin-induced CD-1 mouse assessed as protective agent at 100 mg/kg, IM after 24 hrs
[2] = test system: Mus musculus; test: Neuroprotective activity against sarin-induced CD-1 mouse assessed as protective agent at 100 mg/kg, IM after 24 hrs

Question: `NC(=O)c1cc[n+](CCC[n+]2cc(Cl)c(/C=N/O)c(Cl)c2)cc1.[Br-].[Br-]` was tested. Which Activity index [1] did it give?
Answer: 8

Question: And the Activity index [2]?
Answer: 4
